Source: PubChem BioAssay AID1745844 (Carcinogenic Potency Database (CPDB), 2022)

Tested on: rodent lifetime carcinogenesis bioassay, tumor incidence TD50
Assay: chronic cancer bioassays in animals – CPDB, compiled studies (AID 1745844)
Settings: rat, strain Fischer 344, by gavage, dosed 104 weeks

Compound: [Cl-].[Cl-].[Ti+4].c1cc[cH-]c1.c1cc[cH-]c1
- TD50 (females, site: forestomach, lesion: squamous-cell papilloma, study length 106 weeks): 378 mg/kg/day
- TD50 (females, site: liver, lesion: hepatocellular adenoma + hepatocellular carcinoma + neoplastic nodule, study length 106 weeks): 378 mg/kg/day
- TD50 (males, site: any site (literature study), lesion: several types, types named in the paper, study length 105 weeks): 40 mg/kg/day
- TD50 (males, site: forestomach, lesion: squamous-cell papilloma, study length 105 weeks): 88.6 mg/kg/day
- TD50 (males, site: liver, lesion: hepatocellular adenoma + hepatocellular carcinoma + neoplastic nodule, study length 105 weeks): 143 mg/kg/day
- TD50 (males, site: multiple organs, lesion: mesothelioma, malignant, study length 105 weeks): 158 mg/kg/day
- TD50 (males, site: pancreas, lesion: acinar-cell adenoma, study length 105 weeks): 97.6 mg/kg/day
